A mixed list of measured activities; the numbers were collected in NIAID ChemDB.

Shared fields: growth or infection tests; agent: HIV-1; method: syncytia; read-out: EC50

Blank or dashed fields: not listed here. ECn is the concentration giving n% inhibition of infection, replication or growth. Lines come from different laboratories, so protocols vary.

smiles	mutations	cells	strain or isolate	value
O=[N+]([O-])c1ccc[n+]([O-])c1SCc1ccccc1		CEM	IIIB	2.2 µg/mL
CCCSC(=Nc1ccc(Cl)c(C(=O)OC(C)C)c1)OC(C)C	RT-E138K	CEM		23.62 µM
O=C1c2ccccc2C(=O)N1CCC1C2CC3CC(C2)CC1C3		CEM	IIIB	>4 µg/mL
CCCCCCCCCCCCCCCC(=O)NCC1OC(n2cnc3c(N)ncnc32)C(OP(=O)(O)OCC2CC(OP(=O)(O)OCC3OC(n4cnc5c(N)ncnc54)C(O)C3O)C(n3cnc4c(N)ncnc43)O2)C1O		SupT1 + Sup-T1	IIIB	<100 µM
CC(C)OC(=O)c1cc(NC(=S)OC(C)(C)C)ccc1Cl	RT-Y181C	CEM		19.71 µM
CCc1nc([N+](=O)[O-])c(N2CCN(C(=O)CSC)CC2)n1Cc1ccccc1.c1ccc2ccccc2c1		MT-4	IIIB	>4.48 µg/mL
CC(C)CN(CC(O)C(NC(=O)O[C@H]1CCOC1)Sc1ccccc1)S(=O)(=O)c1ccc(N)cc1		MT-4		50 µM
CCOC(=O)c1cc(NC(=S)OC(C)C)ccc1C	RT-L100I	CEM		24.88 µM
CCN(CC)CCOc1ccc(NC(=O)COc2ccccc2C(=O)c2ccc(OC)cc2)cc1		C8166	RF	0.6007 µM
CC(C)=CCOc1cc(NC(=S)c2ccoc2C)ccc1Cl	RT-K103N	CEM	IIIB	0.069 µM
CCc1nc([N+](=O)[O-])c(N2CCN(C(=O)c3cccs3)CC2)n1Cc1ccccc1		MT-4	IIIB	>49 µg/mL
Cc1ccc(C)c(C(Cl)S(=O)(=O)c2cc(C)cc[n+]2[O-])c1	RT-L100I	CEM	IIIB	>4 µg/mL
O=C1c2cccc([N+](=O)[O-])c2C(=O)N1C1C2CC3CC(C2)CC1C3		CEM	IIIB	>4 µg/mL
Cc1ccccc1OC(=O)c1cc(NC(=S)OC(C)C)ccc1Cl	RT-E138K	CEM		20.61 µM
CCc1nc([N+](=O)[O-])c(N2CCN(C(=O)CCC(=O)OC)CC2)n1Cc1ccccc1		MT-4	IIIB	>29.8 µg/mL
Nc1ccn([C@H]2CC[C@@H](CO)O2)c(=O)n1		MT-4		0.1 µM
CC(C)OC(=S)Nc1ccc(Cl)c(C(=O)SC(C)C)c1	RT-L100I	CEM		1.657 µM
Cc1ccc(C)c(C(C)S(=O)(=O)c2c(C)ccc[n+]2[O-])c1		CEM	HE	0.4 µg/mL
CC(C)CN(C[C@@H](O)[C@@H](NC(=O)O[C@H]1CCOC1)Sc1ccccc1)S(=O)(=O)c1ccc(N)cc1		MT-4		>50 µM
O=c1nc(-n2cncn2)ccn1[C@H]1C[C@H](O)[C@@H](CO)O1		C8166	IIIB Laboratory clade B	>1000 µM
CC(C)OC(=S)Nc1ccc(Cl)c(C(=O)O)c1	RT-L100I	CEM		>36.53 µM
O=C1c2ccccc2C(=O)N1C1C2CC3CC(C2)CC1C3		CEM	IIIB	>4 µg/mL
CC(C)C[C@H](NC(=O)[C@@H](NC(=O)[C@H](Cc1c[nH]c2ccccc12)NC(=O)CCCCCCC(=O)Nc1ccn([C@H]2CC[C@@H](CO)O2)c(=O)n1)C(C)C)[C@@H](O)CC(=O)NC(Cc1ccccc1)c1ccccc1		MT-4		1 µM
CC(=O)OC[C@H]1O[C@@H](n2ccc(-n3cncn3)nc2=O)C[C@@H]1OC(C)=O		C8166	IIIB Laboratory clade B	400 µM
C=C(C)COc1cc(NC(=S)OC(C)C)ccc1Cl	RT-Y181C	CEM		>3.335 µM
NC(=O)OCc1ncc(Sc2cc(Cl)cc(Cl)c2)n1Cc1ccncc1		MT-4	IIIB	>0.0014 µg/mL
CC(C)OC(=S)Nc1ccc(Cl)c(C(=O)OC2CCCC2)c1	RT-Y181C	CEM		1.609 µM
Cc1ccc(C(C)S(=O)(=O)c2c(C)ccc[n+]2[O-])c(C)c1		CEM	RF	7.7 µg/mL
CSc1ccccc1N1CCN(c2ccc3c(=O)c(C(=O)O)cn(-c4ccc(Cn5cncn5)cc4)c3c2)CC1		PBL		0.09 µM
C=C(C)[C@@]12OC3(C)O[C@@H]1[C@@H]1[C@H](OC(=O)c4ccccc4)C4(C)O[C@@]5([C@@H]4OC(=O)c4ccccc4)[C@@H](O)[C@@H](C)C[C@H]5[C@@]1(O)[C@H](C)[C@@H]2O3		C8166		63.8 µg/mL
CSC(=Nc1ccc(Cl)c(C(=O)OC(C)C)c1)OC(C)C	RT-L100I	CEM		>30.13 µM
O=C1c2ccccc2C(=O)N1[C@@H]1CC2CC3CC(C2)C1C3		CEM	IIIB	>4 µg/mL
COc1ccccc1N1CCN(c2ccc3c(=O)c(C(=O)O)cn(-c4ccc(Cn5cncn5)cc4)c3c2)CC1		PBL		0.1 µM
CCc1nc([N+](=O)[O-])c(N2CCN(C(=O)OCn3c4ccccc4c4ccccc43)CC2)n1Cc1ccccc1		MT-4	IIIB	>11.3 µg/mL
O=c1nc(-n2cncn2)ccn1[C@@H]1O[C@H](CO)[C@@H](O)[C@H]1O		C8166	IIIB Laboratory clade B	100 µM
CCc1nc([N+](=O)[O-])c(N2CCN(C(=O)CCl)CC2)n1Cc1ccccc1		MT-4	IIIB	>0.41 µg/mL
O=C(O)c1cn(-c2ccc(Cn3cncn3)cc2)c2cc(N3CCN(c4cccc(Cl)c4)CC3)ccc2c1=O		PBL		0.2 µM
CN1CCN(C(=O)c2ccc3c(=O)c4ccccc4[nH]c3c2)CC1	RT-E138K	CEM		1.347 µM
O=C(COc1ccc(Cl)cc1C(=O)c1ccccc1)c1cc2ccccc2[nH]1		C8166	RF	>128 µM
CCCCCCCCCCCCCCCC(=O)NCC1OC(n2cnc3c(N)ncnc32)C(OP(=O)(O)OCC2OC(n3cnc4c(N)ncnc43)C(OP(=O)(O)OCC3CC(O)C(n4cnc5c(N)ncnc54)O3)C2O)C1O		SupT1 + Sup-T1	IIIB	<100 µM
Cc1ccc(C)c(C(C)S(=O)(=O)c2ccc(C)c[n+]2[O-])c1	RT-K103N	CEM	IIIB	48 µg/mL
Cc1ccc(S(=O)(=O)Oc2ccc(Cl)c3c2C(=O)c2ccccc2C3=O)cc1		C8166	IIIB	37.53 µg/mL
CC(=O)OC[C@H]1O[C@@H](n2cc(C)c(Oc3c(F)c(F)c(F)c(F)c3F)nc2=O)C[C@@H]1N=[N+]=[N-]		C8166	IIIB Laboratory clade B	2 µM
Cc1cn([C@H]2C[C@H](N=[N+]=[N-])[C@@H](CO)O2)c(=O)[nH]c1=O		C8166		0.004 µg/mL
NC1=NS(=O)(=O)N(Cc2ccccc2)c2nc(-c3ccc(Cl)cc3)[nH]c21		CEM	IIIB	>4 µg/mL
C/C=C\COc1cc(NC(=S)OC(C)C)ccc1Cl		CEM	IIIB	0.0133 µM
NC1=NS(=O)(=O)N(Cc2ccccc2)c2nc[nH]c21		CEM	IIIB	30 µg/mL
CC(C)C[C@H](NC(=O)[C@@H](NC(=O)[C@H](Cc1c[nH]c2ccccc12)NC(=O)CCC(=O)Nc1ccn([C@H]2CC[C@@H](CO[Si](c3ccccc3)(c3ccccc3)C(C)(C)C)O2)c(=O)n1)C(C)C)[C@@H](O)CC(=O)NC(Cc1ccccc1)c1ccccc1		MT-4		10 µM
CCCCOC(=O)c1cc(NC(=S)OC(C)C)ccc1Cl	RT-L100I	CEM		1.9 µM
Cc1occc1C(=O)Nc1ccc(Cl)c(/C=N/N(C)C)c1	RT-K103N	CEM	R82913-resistant (RT K103N)	<2 µg/mL
O=C(c1ccccc1)c1cc(Cl)ccc1OCC(=O)N1CCc2ccccc2C1		C8166	RF	0.027 µM
O=C1c2ccccc2C(=O)N1[C@H]1CC2CC3CC(C2)C1C3		CEM	IIIB	>4 µg/mL
CCc1nc([N+](=O)[O-])c(N2CCN(C(=O)c3ccc(Cl)cc3Cl)CC2)n1Cc1ccccc1		MT-4	IIIB	>14.6 µg/mL
Cc1cc(OCCCN(C)C)ccc1NC(=O)Cc1ccc(Cl)cc1C(=O)c1ccccc1		C8166	RF	0.0344 µM
O=C(Oc1ccc(Cl)c2c1C(=O)c1ccccc1C2=O)c1ccccc1		C8166	IIIB	>200 µg/mL
CSc1ccc(NC(=S)OC(C)C)cc1C(=O)OC(C)C		CEM	IIIB	0.122 µM
CCN(CC)CCOc1ccc(NC(=O)COc2ccccc2C(=O)c2ccc(F)cc2)cc1		C8166	RF	0.0275 µM
CCOC(=O)COc1cc(NC(=S)OC(C)C)ccc1Cl	RT-Y181C	CEM		23.27 µM
CN(C)CCONc1c2cc(Cl)ccc2nc(=S)c2ccccc12		H9	LAV	1.5 µM
C#CCOc1cc(NC(=S)OC(C)C)ccc1Cl		CEM	IIIB	0.282 µM
CC(C)OC(=O)c1cc(NC(=S)OC(C)C)ccc1Cl	RT-V106A	CEM	IIIB	2.06 µM
CN[C@@H]1[C@H](O[C@@H]2OC[C@@H](O)[C@H](O)[C@H]2O)[C@@H](O)[C@H](O[C@H]2c3cc(C)c(C(=O)N[C@H](C)C(=O)O)c(O)c3-c3c(cc4c(c3O)C(=O)c3cc(OC)cc(O)c3C4=O)[C@@H]2O)O[C@@H]1C		CEM	Mutant AH_3/#82	7.8 µM
CC[C@H](C)OC(=S)Nc1ccc(Cl)c(C(=O)OC(C)C)c1	RT-L100I	CEM		2.122 µM
Cc1ccc(C)c(CS(=O)(=O)c2ccccn2)c1	RT-E103K	CEM	IIIB	>20 µg/mL
COC(=S)Nc1ccc(Cl)c(C(=O)OC(C)C)c1	RT-Y181C	CEM		≥34.75 µM
O=C1c2ccccc2C(=O)c2c(OS(=O)(=O)c3ccccc3)ccc(Cl)c21		C8166	IIIB	35.13 µg/mL

For reference, 10 entries again:

O=C(O)c1cn(-c2ccc(Cn3cncn3)cc2)c2cc(N3CCN(c4cccc(Cl)c4)CC3)ccc2c1=O ; cells: PBL ; value: 0.2 µM
C/C=C\COc1cc(NC(=S)OC(C)C)ccc1Cl ; cells: CEM ; strain or isolate: IIIB ; value: 0.0133 µM
NC(=O)OCc1ncc(Sc2cc(Cl)cc(Cl)c2)n1Cc1ccncc1 ; cells: MT-4 ; strain or isolate: IIIB ; value: >0.0014 µg/mL
O=C1c2ccccc2C(=O)N1[C@@H]1CC2CC3CC(C2)C1C3 ; cells: CEM ; strain or isolate: IIIB ; value: >4 µg/mL
O=c1nc(-n2cncn2)ccn1[C@H]1C[C@H](O)[C@@H](CO)O1 ; cells: C8166 ; strain or isolate: IIIB Laboratory clade B ; value: >1000 µM
CC(C)OC(=S)Nc1ccc(Cl)c(C(=O)O)c1 ; mutations: RT-L100I ; cells: CEM ; value: >36.53 µM
Cc1occc1C(=O)Nc1ccc(Cl)c(/C=N/N(C)C)c1 ; mutations: RT-K103N ; cells: CEM ; strain or isolate: R82913-resistant (RT K103N) ; value: <2 µg/mL
CCc1nc([N+](=O)[O-])c(N2CCN(C(=O)c3cccs3)CC2)n1Cc1ccccc1 ; cells: MT-4 ; strain or isolate: IIIB ; value: >49 µg/mL
C=C(C)[C@@]12OC3(C)O[C@@H]1[C@@H]1[C@H](OC(=O)c4ccccc4)C4(C)O[C@@]5([C@@H]4OC(=O)c4ccccc4)[C@@H](O)[C@@H](C)C[C@H]5[C@@]1(O)[C@H](C)[C@@H]2O3 ; cells: C8166 ; value: 63.8 µg/mL
CCCCOC(=O)c1cc(NC(=S)OC(C)C)ccc1Cl ; mutations: RT-L100I ; cells: CEM ; value: 1.9 µM